Pooled drug test results. Numbers come from NIAID ChemDB, via PubChem.

Shared fields: tests on isolated targets; agent: HIV-1; target: Protease

An empty or dashed field is not shown.

compound | method | read-out | value
Cc1ccccc1CNC(=O)[C@H]1N(C(=O)[C@@H](O)[C@H](Cc2ccccc2)NC(=O)c2ccccc2C(=O)NCc2ccccn2)CSC1(C)C | HPLC | IC50 | <5 µM
N[C@@H](Cc1ccccc1)C(=O)N[C@@H](CO)C(=O)N[C@@H](Cc1ccccc1)[C@@H](O)C(=O)NCC1CCCCC1 | - | IC50 | >1000 µM
COc1ccc(S(=O)(=O)N(CC(C)C)C[C@@H](O)[C@@H]2Cc3ccc(cc3)OCCCCCc3c(O)cccc3C(=O)N2)cc1 | fluorescence | Ki | 0.00025 µM
CCOC[C@@H]1CC(NC(=O)[C@H](OCc2ccccc2)[C@H](O)[C@@H](O)[C@@H](OCc2ccccc2)C(=O)N[C@@H]2CO[C@H](COCC)C2)CO1 | fluorescence | Ki | >5 µM
CC(C)C[C@H](NC(=O)[C@@H](NC(=O)CCCCCCCCCCCCCCC(=O)N[C@@H](CC(N)=O)C(=O)N[C@@H](Cc1cccc2ccccc12)C(=O)O)C(C)O)C(=O)N[C@@H](Cc1cc(I)c(Oc2cc(I)c(O)c(I)c2)c(I)c1)C(N)=O | HPLC | Ki | 0.0292 µM
CC(C)[C@H](NC(=O)[C@H](Cc1ccccc1)NC(=O)[C@@H]1O[C@@H](C(=O)N[C@@H](Cc2ccccc2)C(=O)N[C@H](C(=O)NCc2ccccn2)C(C)C)[C@@H](OCc2ccccc2)[C@@H]1OCc1ccccc1)C(=O)NCc1ccccn1 | - | IC50 | >2 µM
Cc1ccccc1CNC(=O)[C@H]1N(C(=O)[C@@H](O)[C@H](Cc2ccccc2)NC(=O)c2ccccc2C(=O)NCc2cccnc2)CSC1(C)C | HPLC | IC50 | <5 µM
CC(C)C[C@H](NC(=O)CCCCCCCCCCCCCCC(=O)N[C@@H](CC(N)=O)C(=O)N[C@@H](Cc1ccccc1)C(=O)O)C(=O)N[C@@H](CC(C)C)C(=O)N[C@@H](Cc1ccccc1)C(N)=O | HPLC | IC50 | 0.87 µM
CC(C)C[C@H](NC(=O)OC(C)(C)C)C(=O)N[C@@H](Cc1ccccc1)C(=O)NC[C@@H]1O[C@@H](CNC(=O)[C@H](Cc2ccccc2)NC(=O)[C@@H](CC(C)C)NC(=O)OC(C)(C)C)[C@@H](O)[C@@H]1O | - | IC50 | >2 µM
CC(C)(C)NC(=O)[C@@H]1CCCN1C(=O)[C@@H](O)[C@H](Cc1ccccc1)NC(=O)[C@H](CC(N)=O)NC(=O)OCc1ccccc1 | - | IC50 | 0.089 µM
CC(C)(C)NC(=O)[C@H]1N(C(=O)[C@@H](O)[C@H](Cc2ccccc2)NC(=O)c2ccccc2C(=O)NCc2ccncc2)CSC1(C)C | HPLC | IC50 | >5 µM
CC(C)[C@H](NC(=O)[C@@H](NC(=O)C(Cc1ccccc1)NC(=O)[C@@H](O)[C@H](Cc1ccccc1)NC(=O)[C@@H](N[C@H](C(=O)O)C(C)C)C(C)C)C(C)C)C(N)=O | - | IC50 | 2.6 µM
COC(=O)[C@@H](NC(=O)[C@@H](NC(=O)C[C@H](O)[C@H](CC(C)C)NC(=O)[C@@H](NC(=O)[C@H](Cc1c[nH]c2ccccc12)NC(=O)OCc1ccccc1)C(C)C)C(C)C)C(C)C | fluorescence | IC50 | 0.3 µM
O=C(Oc1ccccc1)N1C2C3(CO)C(c4ccccc4)C4(CO)C1C1(CO)C(c5ccccc5)C2(CO)C3N(C(=O)Oc2ccccc2)C41 | - | IC50 | >25 µM
CC[C@@H](C)[C@H](NC(=O)[C@@H]1CCCN1C(=O)[C@@H](O)[C@H](Cc1ccccc1)NC(=O)[C@H](CC(=O)N(C)C)NC(=O)CCc1ccccc1)C(=O)N[C@H](C(N)=O)C(C)C | - | IC50 | >5 µM
COc1ccc(S(=O)(=O)N(CC(C)C)C[C@@H](O)[C@@H]2Cc3ccc(cc3)OCCCCCCCc3c(O)cccc3C(=O)N2)cc1 | fluorescence | Ki | 0.004 µM
CC(C)(C)NC(=O)[C@@H]1CCCN1C(=O)[C@@H](O)[C@H](Cc1ccccc1)NC(=O)[C@H](CC(N)=O)NS(=O)(=O)c1cccc2ccccc12 | - | IC50 | >0.05 µM
COC(=O)C[C@H](O)C(CC(C)C)NC(=O)[C@H](C)NC(=O)CC(O)C(CC1CCCCC1)NC(=O)[C@@H](NC(=O)[C@H](Cc1ccc(O)cc1)NC(=O)OCc1ccccc1)C(C)C | fluorescence | IC50 | 0.6 µM
COC(=O)[C@H](CC(C)C)NC(=O)[C@H](Cc1ccccc1)NC(=O)[C@@H]1O[C@@H](C(=O)N[C@@H](Cc2ccccc2)C(=O)N[C@@H](CC(C)C)C(=O)OC)[C@@H](O)[C@@H]1O | - | IC50 | >2 µM
CCC(CC)NC(=O)[C@@H]1CCCN1C(=O)[C@@H](O)[C@H](Cc1ccccc1)NC(=O)[C@H](CC(N)=O)NC(=O)OCc1ccccc1 | - | IC50 | <5 µM
COc1ccc(C2C3(CO)C4N(C(=O)Cc5ccccc5)C5C2(CO)C2N(C(=O)Cc6ccccc6)C3C4(CO)C(c3ccc(OC)cc3)C52CO)cc1 | - | IC50 | >50 µM
CC(C)(C)NC(=O)[C@H]1N(C(=O)[C@@H](O)[C@H](Cc2ccccc2)NC(=O)c2ccccc2C(=O)NCc2cccnc2)CSC1(C)C | HPLC | IC50 | >5 µM
COc1ccc(C2C3(CO)C4N(C(=O)OC(C)(C)C)C5C2(CO)C2N(C(=O)OC(C)(C)C)C3C4(CO)C(c3ccc(OC)cc3)C52CO)cc1 | - | IC50 | >50 µM
COC(=O)C[C@H](O)C(CC(C)C)NC(=O)[C@H](C)NC(=O)CC(O)C(Cc1ccccc1)NC(=O)[C@@H](NC(=O)[C@H](Cc1ccc(O)cc1)NC(=O)OCc1ccccc1)C(C)C | fluorescence | IC50 | 0.65 µM
CC[C@H](C)[C@H](NC(=O)[C@@H]1CCCN1C(=O)[C@@H](O)[C@H](Cc1ccccc1)NC(=O)[C@H](CC(=O)O)NC(=O)[C@H](Cc1ccccc1)NC(=O)[C@@H](N)CO)C(=O)N[C@H](C(N)=O)C(C)C | - | IC50 | 0.005 µM
CSCC[C@H](NC(=O)CCCCCCCCCCCCCCC(=O)N[C@@H](CC(N)=O)C(=O)N[C@@H](CC1CCCCC1)C(=O)O)C(=O)N[C@@H](CC(C)C)C(=O)N[C@@H](Cc1ccccc1)C(N)=O | HPLC | IC50 | 0.5 µM
CC(C)(C)NC(=O)[C@@H]1CCCN1C(=O)[C@H](O)[C@H](Cc1ccccc1)NC(=O)[C@H](CC(N)=O)NC(=O)OCc1ccccc1 | - | IC50 | >10 µM
CSCC[C@H](NC(=O)CCCCCCCCCCCCCCC(=O)N[C@H](C(=O)N[C@H](C(=O)N[C@@H](Cc1ccccc1)C(N)=O)C1CCCCC1)C(C)O)C(=O)N[C@@H](Cc1ccccc1)C(=O)O | HPLC | IC50 | 0.48 µM
CC[C@H](C)[C@H](NC(=O)C[C@H](O)[C@H](CC(C)C)NC(=O)[C@@H](NC(=O)[C@H](Cc1ccc(O)cc1)NC(=O)OCc1ccccc1)C(C)C)C(=O)N[C@@H](Cc1ccccc1)C(=O)O | fluorescence | IC50 | 0.1 µM
COC(=O)[C@H](C)NC(=O)[C@H](CC(C)C)NC(=O)[C@H](Cc1ccccc1)NC(=O)[C@@H]1O[C@@H](C(=O)N[C@@H](Cc2ccccc2)C(=O)N[C@@H](CC(C)C)C(=O)N[C@@H](C)C(=O)OC)[C@@H](O)[C@@H]1O | - | IC50 | >2 µM
CSCC[C@H](NC(=O)CCCCCCCCCCCCCCC(=O)N[C@@H](CS(C)(=O)=O)C(=O)N[C@@H](Cc1ccccc1)C(=O)O)C(=O)N[C@@H](CC(C)C)C(=O)N[C@@H](Cc1ccccc1)C(N)=O | HPLC | IC50 | 0.47 µM
CC(C)[C@H](N)C(=O)N[C@H](C(=O)N[C@@H](Cc1ccccc1)[C@@H](O)C(=O)N[C@@H](Cc1ccccc1)C(=O)N[C@H](C(=O)N[C@H](C(N)=O)C(C)C)C(C)C)C(C)C | - | IC50 | 0.35 µM
CC(C)N(CC(=O)N(CC(=O)NC[C@@]1(O)C2C3C4C2[C@@](O)(CNC(=O)CN(Cc2ccccc2)C(=O)CN(C(=O)CN(C)C(=O)CSc2ncccn2)C(C)C)C2C1[C@H]3C[C@H]42)Cc1ccccc1)C(=O)CN(C)C(=O)CSc1ncccn1 | substrate cleavage | IC50 | 1 µM
CC(C)[C@H](NC(=O)OCc1ccccc1)C(=O)N[C@@H](Cc1ccccc1)C(O)[C@H](Cc1ccccc1)NC(=O)[C@@H](NC(=O)OCc1ccccc1)C(C)C | - | IC50 | 0.003 µM
COC(=O)C[C@H](O)[C@H](CC(C)C)NC(=O)[C@H](C)NC(=O)C[C@H](O)[C@H](CC(C)C)NC(=O)[C@@H](NC(=O)[C@H](Cc1ccc(O)cc1)NC(=O)OCc1ccccc1)C(C)C | fluorescence | IC50 | 0.6 µM
CC(C)N(CC(=O)NC[C@]1(O)C2C3C4C2[C@](O)(CC(N)=O)C2C1[C@@H]3C[C@@H]42)C(=O)CN(C)C(=O)OCc1ccccc1 | substrate cleavage | IC50 | 0.75 µM
CC[C@@H](C)[C@H](NC(=O)[C@@H]1CCCN1C(=O)[C@@H](O)[C@H](CC1CCCCC1)NC(=O)[C@H](CC(N)=O)NC(=O)CCc1ccccc1)C(=O)N[C@H](C(N)=O)C(C)C | - | IC50 | 1.999 µM
CC(C)C(O)[C@@H]1CC(NC(=O)[C@H](OCc2ccccc2)[C@H](O)[C@@H](O)[C@@H](OCc2ccccc2)C(=O)N[C@@H]2CO[C@H](C(O)C(C)C)C2)CO1 | fluorescence | Ki | 1.59 µM
COc1cccc2cc(C(=O)N[C@@H](Cc3ccccc3)[C@H](O)C(=O)N3CSC(C)(C)[C@H]3C(=O)NC(C)(C)C)oc12 | HPLC | IC50 | >5 µM
COC(=O)N1C2C3(CO)C(c4ccc(OC)cc4)C4(CO)C1C1(CO)C(c5ccc(OC)cc5)C2(CO)C3N(C(=O)OC)C41 | - | IC50 | >50 µM
CC(C)CC(NC(=O)[C@H](C)NC(=O)C[C@H](O)[C@H](CC(C)C)NC(=O)[C@@H](NC(=O)[C@H](Cc1c[nH]c2ccccc12)NC(=O)OCc1ccccc1)C(C)C)[C@@H](O)CC(=O)O | fluorescence | IC50 | 0.04 µM
CC[C@H](C)[C@H](NC(=O)[C@@H]1CCCN1C(=O)[C@H](O)[C@H](Cc1ccccc1)NC(=O)[C@H](CC(N)=O)NC(=O)CCc1ccccc1)C(=O)N[C@H](C(N)=O)C(C)C | - | IC50 | 3 µM
C=CCOC[C@@H]1CC(NC(=O)[C@H](OCc2ccccc2)[C@H](O)[C@@H](O)[C@@H](OCc2ccccc2)C(=O)N[C@@H]2CO[C@H](COCC=C)C2)CO1 | fluorescence | Ki | >5 µM
CC[C@H](C)[C@H](NC(=O)[C@@H]1CCCN1C(=O)[C@@H](O)[C@H](Cc1ccccc1)NC(=O)[C@H](CO)NC(=O)CCc1ccccc1)C(=O)N[C@H](C(N)=O)C(C)C | - | IC50 | <5 µM
CC(C)C[C@H](NC(=O)[C@@H](NC(=O)CCCCCCCCCCCCCCC(=O)N[C@@H](CC(N)=O)C(=O)N[C@@H](CC1CCCCC1)C(=O)O)C(C)O)C(=O)N[C@@H](Cc1ccccc1)C(N)=O | HPLC | IC50 | 3.7 µM
CC(=O)N1C2C3(CO)C(c4ccccc4)C4(CO)C1C1(CO)C(c5ccccc5)C2(CO)C3N(C(C)=O)C41 | - | IC50 | >50 µM
CC(=O)N[C@@H](Cc1c[nH]c2ccccc12)C(=O)N[C@H](C(=O)N[C@@H](CC(C)C)[C@@H](O)CC(=O)N[C@H](C(=O)N[C@H](C(=O)OCc1ccccc1)C(C)C)C(C)C)C(C)C | fluorescence | IC50 | 0.1 µM

The last 6 rows once more:

compound	method	read-out	value
CC[C@H](C)[C@H](NC(=O)[C@@H]1CCCN1C(=O)[C@H](O)[C@H](Cc1ccccc1)NC(=O)[C@H](CC(N)=O)NC(=O)CCc1ccccc1)C(=O)N[C@H](C(N)=O)C(C)C	-	IC50	3 µM
C=CCOC[C@@H]1CC(NC(=O)[C@H](OCc2ccccc2)[C@H](O)[C@@H](O)[C@@H](OCc2ccccc2)C(=O)N[C@@H]2CO[C@H](COCC=C)C2)CO1	fluorescence	Ki	>5 µM
CC[C@H](C)[C@H](NC(=O)[C@@H]1CCCN1C(=O)[C@@H](O)[C@H](Cc1ccccc1)NC(=O)[C@H](CO)NC(=O)CCc1ccccc1)C(=O)N[C@H](C(N)=O)C(C)C	-	IC50	<5 µM
CC(C)C[C@H](NC(=O)[C@@H](NC(=O)CCCCCCCCCCCCCCC(=O)N[C@@H](CC(N)=O)C(=O)N[C@@H](CC1CCCCC1)C(=O)O)C(C)O)C(=O)N[C@@H](Cc1ccccc1)C(N)=O	HPLC	IC50	3.7 µM
CC(=O)N1C2C3(CO)C(c4ccccc4)C4(CO)C1C1(CO)C(c5ccccc5)C2(CO)C3N(C(C)=O)C41	-	IC50	>50 µM
CC(=O)N[C@@H](Cc1c[nH]c2ccccc12)C(=O)N[C@H](C(=O)N[C@@H](CC(C)C)[C@@H](O)CC(=O)N[C@H](C(=O)N[C@H](C(=O)OCc1ccccc1)C(C)C)C(C)C)C(C)C	fluorescence	IC50	0.1 µM

Lines come from different laboratories, so protocols vary. ICn: concentration for n% inhibition.